{
  "sequences": {"note": "Chains of the proteins cited; added tags and fusions are not shown. Lines headed by an entry give the natural chain unless they say otherwise; changes in a name come on top.", "UniProt P0DPI0": "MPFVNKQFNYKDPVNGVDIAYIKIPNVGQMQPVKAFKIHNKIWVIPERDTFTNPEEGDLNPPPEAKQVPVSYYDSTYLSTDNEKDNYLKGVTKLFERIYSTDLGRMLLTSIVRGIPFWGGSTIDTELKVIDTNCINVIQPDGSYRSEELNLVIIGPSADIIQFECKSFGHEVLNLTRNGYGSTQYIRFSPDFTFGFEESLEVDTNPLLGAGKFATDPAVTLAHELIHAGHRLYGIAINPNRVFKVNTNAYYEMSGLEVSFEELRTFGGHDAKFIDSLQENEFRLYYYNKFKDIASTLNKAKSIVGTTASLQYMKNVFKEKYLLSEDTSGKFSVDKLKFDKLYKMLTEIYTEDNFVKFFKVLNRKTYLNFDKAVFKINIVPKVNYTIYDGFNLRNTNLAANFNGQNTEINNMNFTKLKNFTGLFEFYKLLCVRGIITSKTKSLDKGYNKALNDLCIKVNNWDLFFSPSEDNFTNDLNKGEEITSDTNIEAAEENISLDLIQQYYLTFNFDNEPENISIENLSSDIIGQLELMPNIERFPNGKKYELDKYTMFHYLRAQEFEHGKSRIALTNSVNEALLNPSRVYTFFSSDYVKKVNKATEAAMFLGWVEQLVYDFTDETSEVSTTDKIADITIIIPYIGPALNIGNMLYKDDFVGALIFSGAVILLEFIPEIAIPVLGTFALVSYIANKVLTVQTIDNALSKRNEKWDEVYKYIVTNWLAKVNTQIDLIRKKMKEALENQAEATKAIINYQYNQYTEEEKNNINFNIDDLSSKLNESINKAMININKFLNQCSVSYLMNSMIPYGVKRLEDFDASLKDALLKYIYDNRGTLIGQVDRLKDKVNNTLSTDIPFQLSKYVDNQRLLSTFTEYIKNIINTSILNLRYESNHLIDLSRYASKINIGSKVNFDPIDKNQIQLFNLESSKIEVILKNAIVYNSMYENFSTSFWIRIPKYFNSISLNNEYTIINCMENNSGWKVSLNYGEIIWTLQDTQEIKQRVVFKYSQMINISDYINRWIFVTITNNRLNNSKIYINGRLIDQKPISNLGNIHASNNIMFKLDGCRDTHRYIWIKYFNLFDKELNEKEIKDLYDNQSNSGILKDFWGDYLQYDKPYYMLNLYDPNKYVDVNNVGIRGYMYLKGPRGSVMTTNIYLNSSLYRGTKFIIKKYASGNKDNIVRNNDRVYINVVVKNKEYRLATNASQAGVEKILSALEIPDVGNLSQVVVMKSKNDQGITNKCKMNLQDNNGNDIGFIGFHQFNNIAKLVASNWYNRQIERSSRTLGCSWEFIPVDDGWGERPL"},
  "source": "patent US7611856B2",
  "about": "(priority 2003, dated 2009)",
  "target": "BoNT serotype A (Clostridium botulinum, UniProt P0DPI0)",
  "experiment": "cleavage of peptide substrate by BoNT serotype A, MALDI-TOF-MS",
  "data": [
    {"substance": "Biotin-KGSNRTRIDEANQRATRMLGGK-biotin", "values": [
      {"measurement": "cleavage of the peptide by BoNT serotype A", "setting": "digested for two hours, MALDI-TOF-MS", "value": "Two distinct peptide products were shown that were the result of the specific cleavage of the peptide"},
      {"measurement": "amount of BoNT-dependent cleavage products versus unmodified SNAP-25 based peptide", "setting": "lysines 189 and 201 replaced with arginines", "value": "increase in the amount of BoNT-dependent cleavage products detected"}
    ]}
  ]
}
